Assay [1] addresses T1, Munc18c:Sx4_(1-275)-His pre-formed complex (rat | mouse, UniProt Q08850 1-275; Q60770 1-592, C141S).
T1 construct: as m1; Munc18c (Munc18-3), mouse; as m10; m1 immobilised by its C-terminal His6 and complexed with m10 before SNAP23 and VAMP2 were added; also called Munc18c/Sx4-His; source: formed on TALON Co2+ beads from purified E. coli proteins; not shown: His6, C-terminal, kept; His6, N-terminal, cleaved
T1 sequence (looked up) 1: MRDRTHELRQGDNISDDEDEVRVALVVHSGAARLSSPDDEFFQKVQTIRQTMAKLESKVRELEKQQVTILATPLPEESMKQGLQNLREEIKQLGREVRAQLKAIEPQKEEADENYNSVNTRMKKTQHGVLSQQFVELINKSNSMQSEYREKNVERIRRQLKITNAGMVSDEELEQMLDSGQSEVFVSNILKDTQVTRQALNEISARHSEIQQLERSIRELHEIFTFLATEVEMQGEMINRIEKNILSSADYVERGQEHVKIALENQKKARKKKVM
T1 sequence (looked up) 2: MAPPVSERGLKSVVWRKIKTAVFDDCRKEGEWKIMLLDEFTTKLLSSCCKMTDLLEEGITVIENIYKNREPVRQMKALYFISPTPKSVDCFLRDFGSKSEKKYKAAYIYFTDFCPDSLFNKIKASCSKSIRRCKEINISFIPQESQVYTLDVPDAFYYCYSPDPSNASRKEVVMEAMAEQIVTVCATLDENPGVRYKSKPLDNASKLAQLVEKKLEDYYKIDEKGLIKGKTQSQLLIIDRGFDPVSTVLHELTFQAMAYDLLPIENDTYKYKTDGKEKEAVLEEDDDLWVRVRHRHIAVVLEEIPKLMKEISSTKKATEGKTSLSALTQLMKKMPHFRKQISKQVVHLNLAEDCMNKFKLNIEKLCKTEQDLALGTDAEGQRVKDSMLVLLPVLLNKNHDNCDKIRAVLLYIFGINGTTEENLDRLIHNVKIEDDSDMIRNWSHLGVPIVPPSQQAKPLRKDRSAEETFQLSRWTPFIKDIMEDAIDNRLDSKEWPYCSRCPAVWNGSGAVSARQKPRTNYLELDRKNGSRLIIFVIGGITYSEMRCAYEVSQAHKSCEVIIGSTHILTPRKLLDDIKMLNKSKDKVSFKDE
As to the kind of experiment: pull-down; Sx4-His proteins immobilised by C-terminal His6 on Co2+ resin, pre-complexed with de-tagged Munc18c or without it (controls); GST-cleaved SNAP23 and VAMP2 (40 μg) added together, overnight, 4°C; SDS-PAGE, Coomassie. Particulars: both partners purified.

A further assay deals with T2, Sx4_(1-275)-His (rat, UniProt Q08850 1-275, C141S).
T2 construct: also called Syntaxin4 soluble cytoplasmic domain with C-terminal His6; source: E. coli, purified as described previously [17, 28]; not shown: His6, C-terminal, kept
T2 sequence (looked up): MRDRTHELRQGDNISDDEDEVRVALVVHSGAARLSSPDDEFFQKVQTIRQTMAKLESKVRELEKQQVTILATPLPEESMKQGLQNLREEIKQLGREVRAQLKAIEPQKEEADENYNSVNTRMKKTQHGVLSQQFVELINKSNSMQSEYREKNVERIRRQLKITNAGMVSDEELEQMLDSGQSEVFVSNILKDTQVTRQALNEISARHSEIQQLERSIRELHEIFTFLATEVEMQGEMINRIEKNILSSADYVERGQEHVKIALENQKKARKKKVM
The assay is described as above. Particulars: both partners purified.

B1: VAMP2 (GST-cleaved) (domain or fragment)
chain: not shown
notes: VAMP2, rat, […]; also called synaptobrevin; source: purified (GSH-agarose, thrombin cleavage, MonoS cation exchange)
On to B1, for which the binding result (in assay [1]; with Sx4_(1-275)-His) was “binds” each time.

Source of the values: publication PMC5571939, “The nature of the Syntaxin4 C-terminus affects Munc18c-supported SNARE assembly” (PLoS ONE, 2017).
